Pooled drug test results. Numbers come from NIAID ChemDB, via PubChem.

Common to all: growth or infection tests; agent: HIV-1; method: p24 / ELISA; read-out: EC50

Conditions beyond the fields shown may differ between rows. ECn: concentration that inhibits the pathogen or its effect by n%. An empty or dashed field is not shown.

smiles,strain or isolate,changes,setting,cells,result
CC1(C)Oc2ccc3ccc(=O)oc3c2[C@H](OC(=O)C23CCC(C)(C(=O)O2)C3(C)C)[C@@H]1OC(=O)C12CCC(C)(C(=O)O1)C2(C)C,IIIB,,,H9,51 µM
O=S(=O)(Nc1cccc2cccnc12)c1ccc(F)cc1,NL4-3,,pseudotyped,H9,0.23 µM
CCC1=C(C(=O)OCC2CCCCC2)[C@H](c2ccc(OC(=O)[C@H](C)NC(=O)OC(C)(C)C)cc2)NC(=O)N1,,,,CEM,≤1 µM
CC1(C)Oc2ccc3ccc(=O)oc3c2[C@@H](OC(=O)C23CCC(C)(C(=O)O2)C3(C)C)[C@H]1OC(=O)C12CCC(C)(C(=O)O1)C2(C)C,IIIB,,,PBMC,0.029 µM
C=C(C)[C@@H]1CC[C@]2(NCCN3CCN(S(=O)(=O)Cc4ccccc4)CC3)CC[C@]3(C)[C@H](CC[C@@H]4[C@@]5(C)CC[C@H](OC(=O)[C@H]6C[C@@H](C(=O)O)C6(C)C)C(C)(C)[C@@H]5CC[C@]43C)[C@@H]12,92HT599,,,MT-2,≤0.01 µM
CC1=C(C(=O)NCC2CCCCC2)C(c2cccc(O)c2)NC(=O)N1,,,,CEM,>5 µM
CCCCCCCCCCCCCCCCCCOCCOP(=O)(O)CO[C@H](CO)Cn1ccc(N)nc1=O,NRTI-MDR,V75I F77L F116Y Q151M,,PBMC,0.027 µM
Cn1c2ccccc2c(=O)c2c(O)ccc(O)c21,IIIB,,,OM-10.1,>0.36 µg/mL
CCC1=C(C(=O)NCC(O)C2CCCCC2)C(c2cccc(O)c2)NC(=O)N1,,,,CEM,>5 µM
CC1([C@@H]2CC[C@]3(NCCN4CCN(S(=O)(=O)c5ccccc5)CC4)CC[C@]4(C)[C@H](CC[C@@H]5[C@@]6(C)CC[C@H](OC(=O)[C@H]7C[C@@H](C(=O)O)C7(C)C)C(C)(C)[C@@H]6CC[C@]54C)[C@@H]23)CC1,92HT599,,,MT-2,≤0.01 µM
COc1ccc2[nH]c3ccccc3c(=O)c2c1OC,IIIB,,,OM-10.1,>32 µg/mL
CC(C)C1=C2[C@H]3CC[C@@H]4[C@@]5(C)CC[C@H](OC(=O)[C@H]6C[C@@H](C(=O)O)C6(C)C)C(C)(C)[C@@H]5CC[C@@]4(C)[C@]3(C)CC[C@@]2(CCNCC2(N)CC2)CC1=O,92HT599,,,MT-2,<1 µM
C=C(C)[C@@H]1CC[C@]2(NCCN3CCN(S(=O)(=O)c4ccccc4)CC3)CC[C@]3(C)[C@H](CC[C@@H]4[C@@]5(C)CC[C@H](OC(=O)[C@H]6C[C@@H](C(=O)O)C6(C)C)C(C)(C)[C@@H]5CC[C@]43C)[C@@H]12,92HT599,,,MT-2,≤0.01 µM
CCOC(=O)c1cc(C(=O)c2ccc3ccccc3c2)n2ccc(C(=O)NCc3ccccn3)cc12,,,,H9,82 µM
O=S(=O)(Nc1ncnc2nc[nH]c12)c1ccc(F)cc1F,NL4-3,,pseudotyped,H9,>50 µM
[N-]=[N+]=NCCOCCOCCOc1cc(C2(C(F)(F)F)N=N2)ccc1C(=O)NCCOCCOCCNC(=O)c1cc(C(=O)c2ccc3ccccc3c2)n2ccc(C(=O)c3ccccc3)cc12,,,,H9,27.4 µM
CC1([C@@H]2CC[C@]3(NCCN4CCOCC4)CC[C@]4(C)[C@H](CC[C@@H]5[C@@]6(C)CC[C@H](OC(=O)[C@H]7C[C@@H](C(=O)O)C7(C)C)C(C)(C)[C@@H]6CC[C@]54C)[C@@H]23)CC1,92HT599,,,MT-2,≤0.01 µM
O=c1nccc(NS(=O)(=O)c2ccc(F)cc2F)[nH]1,NL4-3,,pseudotyped,H9,>50 µM
COc1ncc(OC)c2c(C(=O)C(=O)N3CCN(C(=O)c4ccccc4)CC3)c[nH]c12,JR-FL,,,PM1,0.003 µM
CC1([C@@H]2CC[C@]3(NCCN4CCN(S(C)(=O)=O)CC4)CC[C@]4(C)[C@H](CC[C@@H]5[C@@]6(C)CC[C@H](OC(=O)[C@H]7C[C@@H](C(=O)O)C7(C)C)C(C)(C)[C@@H]6CC[C@]54C)[C@@H]23)CC1,92HT599,,,MT-2,≤0.01 µM
CCC1=C(C(=O)OCC2CCCCC2)[C@H](c2cccc(OC(=O)c3cccnc3)c2)NC(=O)N1,,,,CEM,≤1 µM
CC(C)C1=C2[C@H]3CC[C@@H]4[C@@]5(C)CC[C@H](OC(=O)[C@H]6C[C@@H](C(=O)O)C6(C)C)C(C)(C)[C@@H]5CC[C@@]4(C)[C@]3(C)CC[C@@]2(CCNCC(C)(C)NC(=O)c2ccc(F)cc2)CC1=O,92HT599,,,MT-2,<1 µM
CCCC(=O)Nc1ccc(C2NC(=O)NC(CC)=C2C(=O)OCC2CCCCC2)cc1,,,,CEM,≤1 µM
O=C(CCCCC1SC[C@@H]2NC(=O)N[C@H]12)NCCOCCOCCOc1cc(C2(C(F)(F)F)N=N2)ccc1C(=O)NCCOCCOCCNC(=O)c1cc(C(=O)c2ccc3ccccc3c2)n2ccc(C(=O)c3ccccc3)cc12,,,,H9,34.6 µM
Cn1c2ccccc2c(=O)c2c(O)c(O)ccc21,IIIB,,,OM-10.1,>7.8 µg/mL
CCC1=C(C(=O)c2ccc(CC)cc2)C(c2cccc(O)c2)NC(=O)N1,,,,CEM,>5 µM
Cn1c2ccccc2c(=O)c2c(O)cccc21,IIIB,,,MOLT-4/IIIB + MOLT-4,>2.07 µg/mL
CC(C)C1=C2[C@H]3CC[C@@H]4[C@@]5(C)CC[C@H](OC(=O)[C@H]6C[C@@H](C(=O)O)C6(C)C)C(C)(C)[C@@H]5CC[C@@]4(C)[C@]3(C)CC[C@@]2([C@@H](O)CN(CCN(C)C)C(=O)c2ccc(Cl)cc2)CC1=O,92HT599,,,MT-2,<1 µM
Nc1ccc(C2NC(=O)NC(C3CC3)=C2C(=O)OCC2CCCCC2)cc1,,,,CEM,>5 µM
[2H]C(CO)(CNCC[C@@]12CC[C@]3(C)[C@H](CC[C@@H]4[C@@]5(C)CC[C@H](OC(=O)[C@H]6C[C@@H](C(=O)O)C6(C)C)C(C)(C)[C@@H]5CC[C@]43C)C1=C(C(C)C)C(=O)C2)NC(=O)c1ccc(Cl)cc1,92HT599,,,MT-2,<1 µM
CCCCCCCCCCCCCCCCCCOCCOP(=O)(O)CO[C@H](CO)Cn1cnc2c(N)nc(N)nc21,NRTI-MDR,K65R,,PBMC,0.074 µM
Cc1nc2ccc(C(=O)NC[C@H](O)[C@@]34CC[C@]5(C)[C@H](CC[C@@H]6[C@@]7(C)CC[C@H](OC(=O)[C@H]8C[C@@H](C(=O)O)C8(C)C)C(C)(C)[C@@H]7CC[C@]65C)C3=C(C(C)C)C(=O)C4)cc2[nH]1,92HT599,,,MT-2,<1 µM
CCC1=C(c2nc(C3CCCCC3)cs2)C(Cc2ccccc2)NC(=O)N1,,,,CEM,>5 µM
O=C(OCCOCCOCCNC(=O)c1cc(C(=O)c2ccc3ccccc3c2)n2ccc(C(=O)c3ccccc3)cc12)c1ccccc1,,,,H9,56.5 µM
O=S(=O)(c1cccc2cnccc12)N1CCNCC1,IIIB,,,OM-10.1,1.26 µg/mL
C=C(C)[C@@H]1CC[C@]2(NCCN3CCN(S(=O)(=O)N(C)C)CC3)CC[C@]3(C)[C@H](CC[C@@H]4[C@@]5(C)CC[C@H](OC(=O)[C@H]6C[C@@H](C(=O)O)C6(C)C)C(C)(C)[C@@H]5CC[C@]43C)[C@@H]12,92HT599,,,MT-2,≤0.01 µM
CC(C)C1=C2[C@H]3CC[C@@H]4[C@@]5(C)CC[C@H](OC(=O)[C@H]6C[C@@H](C(=O)O)C6(C)C)C(C)(C)[C@@H]5CC[C@@]4(C)[C@]3(C)CC[C@@]2(CCNC(=O)[C@@H]2CCCN2)CC1=O,92HT599,,,MT-2,<1 µM
CCCCCCCCCCCCCCCCCCOCCOP(=O)(O)CO[C@H](CO)Cn1cnc2c(N)ncnc21,NRTI-MDR,V75I F77L F116Y Q151M,,PBMC,0.014 µM
O=S(=O)(Nc1cccc2cccnc12)c1ccc(C(F)(F)F)cc1,NL4-3,,pseudotyped,H9,0.23 µM
Cc1noc(C)c1C(=O)NC(C)(C)CNCC[C@@]12CC[C@]3(C)[C@H](CC[C@@H]4[C@@]5(C)CC[C@H](OC(=O)[C@H]6C[C@@H](C(=O)O)C6(C)C)C(C)(C)[C@@H]5CC[C@]43C)C1=C(C(C)C)C(=O)C2,92HT599,,,MT-2,<1 µM
CC1=C(C(=O)OCC2CCCCC2)C(c2ccc(O)cc2)NC(=O)N1,,,,CEM,≤1 µM

Repeating the final 4 entries:

smiles	strain or isolate	changes	setting	cells	result
CCCCCCCCCCCCCCCCCCOCCOP(=O)(O)CO[C@H](CO)Cn1cnc2c(N)ncnc21	NRTI-MDR	V75I F77L F116Y Q151M		PBMC	0.014 µM
O=S(=O)(Nc1cccc2cccnc12)c1ccc(C(F)(F)F)cc1	NL4-3		pseudotyped	H9	0.23 µM
Cc1noc(C)c1C(=O)NC(C)(C)CNCC[C@@]12CC[C@]3(C)[C@H](CC[C@@H]4[C@@]5(C)CC[C@H](OC(=O)[C@H]6C[C@@H](C(=O)O)C6(C)C)C(C)(C)[C@@H]5CC[C@]43C)C1=C(C(C)C)C(=O)C2	92HT599			MT-2	<1 µM
CC1=C(C(=O)OCC2CCCCC2)C(c2ccc(O)cc2)NC(=O)N1				CEM	≤1 µM